Compound potency records, mixed from different reports. Data source: NIAID ChemDB in PubChem.

All rows: tests on isolated targets; species: HIV-1; target: Reverse transcriptase

ICn: concentration for n% inhibition.

smiles	measure	strain	method	changes	result
COc1ccc2cc(C(=O)N3CCN(c4ncccc4NC(C)C)CC3)[nH]c2c1Br	IC50	-	nucleotide incorporation	-	<100 µM
CC(C)(C)c1ccc(-n2nnnc2SCC(=O)Nc2ccc(NC(=O)Cc3ccccc3)cc2Cl)c(Cl)c1	IC50	-	PicoGreen / fluorescence	RT-K103 Y181C	<1 µM
Cc1c(S(=O)(=O)c2ccc(C(C)(C)C)cc2)[nH]c2ccccc12	IC50	-	RT activity	WT	89 µM
CC(C)Nc1cccnc1N(C)CCN(C)C(=O)c1cc2cc(F)ccc2[nH]1	IC50	-	nucleotide incorporation	-	<100 µM
Cc1cc(C)cc(S(=O)(=O)c2[nH]c3ccccc3c2-c2cccc([N+](=O)[O-])c2)c1	IC50	-	RT activity	Y181C	8 µM
CCN1c2ncc(CCOc3ccc(C(=O)N(C)c4ccc(C(=O)O)cc4)cc3C)cc2C(=O)N(C)c2cccnc21	IC50	IIIB	nucleotide incorporation / radiometric	-	<0.05 µM
Cc1cc(C)cc(S(=O)(=O)c2c(C(=O)NCCn3cccc3)[nH]c3ccc(Cl)c(F)c23)c1	Ki	-	RT activity / nucleotide incorporation	Y181C	3.7 µM
CC(C)=CCOc1cc(NC(=S)c2ccoc2C)ccc1Cl	IC50	-	-	RT-K103N	22.3 µM
CC(C)(C#Cc1ccc(NC(=O)CSc2nnnn2-c2ccc(C3CC3)cc2Cl)c(Cl)c1)OCCNC1CCC1	IC50	-	PicoGreen / fluorescence	RT-K103 Y181C	<1 µM
CCN1c2ncc(CCOc3ccc(-c4cc(C(=O)O)c[n+]([O-])c4)cc3C)cc2C(=O)N(C)c2cccnc21	IC50	IIIB	nucleotide incorporation / radiometric	-	<0.05 µM
CC(C)(C)c1ccc(-n2nnnc2SCC(=O)Nc2ccc(NC(=O)C(C)(C)c3ccccc3)cc2Cl)c(Cl)c1	IC50	WT	PicoGreen / fluorescence	-	<1 µM
CCN1c2ncc(CCOc3ccc(NC(=O)NCC(=O)O)cc3C)cc2C(=O)N(C)c2cccnc21	IC50	IIIB	nucleotide incorporation / radiometric	RT-K103N Y181C	>0.1 µM
CC(C)(C)c1ccc(-n2nnnc2SCC(=O)Nc2ccc(OCC(=O)NN3CCOCC3)cc2Cl)c(Cl)c1	IC50	-	PicoGreen / fluorescence	RT-K103 Y181C	<1 µM
O=S(=O)(O)c1cc(S(=O)(=O)O)c2cc(NS(=O)(=O)c3cccc4c(S(=O)(=O)Nc5ccc6cc(S(=O)(=O)O)cc(S(=O)(=O)O)c6c5)cccc34)ccc2c1	IC50	-	RT activity	-	<50 µM
Cc1ccc(-n2nnnc2SCC(=O)Nc2ccc(-c3ccc(OCC(=O)O)cc3)cc2Cl)c(Cl)c1	IC50	WT	PicoGreen / fluorescence	-	<1 µM
Cc1cn(S(=O)(=O)c2ccc(C(C)(C)C)cc2)c2ccccc12	IC50	-	RT activity	WT	62 µM
CCN1c2ncc(CCOc3cccc4c3CCS(=O)(=O)N4)cc2-c2ncc(C)n2-c2cccnc21	IC50	-	nucleotide incorporation / radiometric	-	<0.05 µM
COc1ccccc1-c1cn(S(=O)(=O)c2ccc3ccccc3c2)c2ccccc12	IC50	-	RT activity	WT	88 µM
Cc1cc(C)cc(S(=O)(=O)c2c(C(=O)NC(C)C(N)=O)[nH]c3ccc(Br)cc23)c1	IC50	-	RT activity	K103N	0.555 µM
CC(C)(C)c1ccc(-n2nnnc2SCC(=O)Nc2ccc(OCC(=O)Nc3ccccc3C(=O)O)cc2Cl)c(Cl)c1	IC50	WT	PicoGreen / fluorescence	-	<1 µM
Cn1c(-c2ccc(-c3ccccc3)cc2)cs/c1=N\N=C1\C(=O)Nc2ccc(Cl)cc21	IC50	-	RT activity / nucleotide incorporation / fluorescence	-	9.5 µM
O=C(Nc1ccc(S(=O)(=O)O)c2cccc(S(=O)(=O)O)c12)c1ccc(C(=O)Nc2ccc(S(=O)(=O)O)c3cccc(S(=O)(=O)O)c23)cc1	IC50	-	RT activity	-	>50 µM
Cn1c(-c2ccc(F)cc2)cs/c1=N\N=C1\C(=O)Nc2ccc(Cl)cc21	IC50	-	RT activity / nucleotide incorporation / fluorescence	-	31 µM
CCN1c2ncc(CCOc3ccc(C(=O)O)cc3C)cc2-c2nccn2-c2cccnc21	IC50	-	nucleotide incorporation / radiometric	-	<0.05 µM
Nc1ncnc2c1ncn2[C@H]1CC[C@@H](COP(=O)(O)OP(=O)(O)OP(=O)(O)O)O1	Ki	-	nucleotide incorporation	-	>100 µM
CCN1c2ncc(CCOc3ccc(C(=O)Nc4ccc(CC(=O)O)cc4)cc3C)cc2C(=O)N(C)c2cccnc21	IC50	IIIB	nucleotide incorporation / radiometric	RT-K103N Y181C	<0.05 µM
Cn1c(-c2ccc(Br)cc2)cs/c1=N\N=C1\C(=O)Nc2ccc(Cl)cc21	IC50	-	RT activity / nucleotide incorporation / fluorescence	-	34 µM
O=C(Oc1cc(S(=O)(=O)O)cc2cc(S(=O)(=O)O)ccc12)c1ccc(-c2ccc(C(=O)Oc3cc(S(=O)(=O)O)cc4cc(S(=O)(=O)O)ccc34)cc2)cc1	IC50	-	RT activity	-	<50 µM
COc1ccc(-c2cs/c(=N\N=C3\C(=O)Nc4ccccc43)n2C)cc1	IC50	-	RT activity / nucleotide incorporation / fluorescence	-	17.9 µM
CCN1c2ncc(CCOc3cccc4c3CS(=O)(=O)N4Cc3cc[n+]([O-])cc3)cc2-c2ncc(C)n2-c2cccnc21	IC50	-	nucleotide incorporation / radiometric	-	<0.05 µM
CC(C)(C)c1ccc(S(=O)(=O)c2c[nH]c3ccccc23)cc1	IC50	-	RT activity	K103N	37 µM
Cc1cc(C(F)(F)F)cc(-n2nnnc2SCC(=O)Nc2ccc(-c3ccc(CC(=O)O)cc3)cc2Cl)c1Cl	IC50	WT	PicoGreen / fluorescence	-	<1 µM
CCN1c2ncc(CCOc3ccc(-c4ccc(CC(=O)O)cc4)cc3C)cc2C(=O)Nc2c(C)ccnc21	IC50	IIIB	nucleotide incorporation / radiometric	-	<0.05 µM
CC(C)(C)c1ccc(-n2nnnc2SCC(=O)Nc2ccc(-c3ccc(OCC(=O)O)c(Cl)c3)cc2Cl)c(Cl)c1	IC50	-	PicoGreen / fluorescence	RT-K103 Y181C	<1 µM
CCN1c2ncc(CCOc3ccc(C(=O)O)c4c3CCCC4)cc2-c2ncc(C)n2-c2cccnc21	IC50	-	nucleotide incorporation / radiometric	-	<0.05 µM
CC(C)(C)c1ccc(-n2nnnc2SCC(=O)Nc2ccc(OCC(=O)Nc3ccccc3O)cc2Cl)c(Cl)c1	IC50	-	PicoGreen / fluorescence	RT-K103 Y181C	<1 µM
Cc1ccc(-c2cs/c(=N\N=C3\C(=O)Nc4ccccc43)n2C)cc1	IC50	-	RT activity / nucleotide incorporation / fluorescence	-	29 µM
O=C(c1cc2ccccc2[nH]1)N1CCN(c2ncccc2NC2CCCC2)CC1	IC50	-	nucleotide incorporation	-	<100 µM
CC(C)(C)c1ccc(-n2nnnc2SCC(=O)Nc2ccc(C(=O)NCCc3ccc(O)cc3)cc2Cl)c(Cl)c1	IC50	-	PicoGreen / fluorescence	RT-K103 Y181C	<1 µM
O=C(CCCCCCCCCCC(=O)Nc1ccc(S(=O)(=O)O)c2ccccc12)Nc1ccc(S(=O)(=O)O)c2ccccc12	IC50	-	RT activity	-	>50 µM
Cc1cc(C)cc(S(=O)(=O)n2cc(-c3cccc([N+](=O)[O-])c3)c3ccccc32)c1	IC50	-	RT activity	K103N	44 µM
CC(C)=CCOc1cc(NC(=S)c2ccsc2C)ccc1Cl	IC50	-	-	RT-L100I	1.1 µM
Cn1c(-c2ccc(F)cc2F)cs/c1=N\N=C1\C(=O)Nc2ccccc21	IC50	-	RT activity / nucleotide incorporation / fluorescence	-	30 µM
CC(C)(C#Cc1ccc(NC(=O)CSc2nnnn2-c2ccc(C(C)(C)C)cc2Cl)c(Cl)c1)OCC(=O)NCCC(=O)O	IC50	-	PicoGreen / fluorescence	RT-K103 Y181C	<1 µM
CC(C)Nc1cccnc1N1CCN(C(=O)c2cc3cc(O)ccc3[nH]2)CC1	IC50	-	nucleotide incorporation	-	<100 µM
CCN1c2ncc(CCOc3ccc(-c4ccc(Cl)c(CC(=O)O)c4)cc3C)cc2C(=O)N(C)c2cccnc21	IC50	IIIB	nucleotide incorporation / radiometric	RT-K103N Y181C	<0.05 µM
O=S(=O)(c1ccc2ccccc2c1)c1c[nH]c2ccccc12	IC50	-	RT activity	WT	42 µM
CC(C)(C#Cc1ccc(NC(=O)CSc2nnnn2-c2ccc(C3CC3)cc2Cl)c(Cl)c1F)NC(=O)CN1CCNCC1	IC50	-	PicoGreen / fluorescence	RT-K103 Y181C	<1 µM
Nc1nc2c(ncn2[C@H]2CC[C@@H](COP(=O)(O)OP(=O)(O)OP(=O)(O)O)O2)c(=O)[nH]1	Ki	-	nucleotide incorporation	-	0.02 µM
CC(C)(C)c1ccc(-n2nnnc2SCC(=O)Nc2ccc(-c3ccc(S(C)(=O)=O)cc3)cc2Cl)c(Cl)c1	IC50	WT	PicoGreen / fluorescence	-	<1 µM
Cn1c(-c2ccc([N+](=O)[O-])cc2)cs/c1=N\N=C1\C(=O)Nc2ccccc21	IC50	-	RT activity / nucleotide incorporation / fluorescence	-	15.6 µM
CCN1c2ncc(CCOc3ccc(-c4cc(C)ccn4)cc3C)cc2C(=O)N(C)c2cccnc21	IC50	IIIB	nucleotide incorporation / radiometric	-	<0.05 µM
O=C(COc1ccc(NC(=O)CSc2nnnn2-c2ccc(C3CC3)cc2Cl)c(Cl)c1)NCc1cccnc1	IC50	WT	PicoGreen / fluorescence	-	<1 µM
Cc1cc(C)cc(S(=O)(=O)c2c(C(=O)NCCOc3ccccc3)[nH]c3ccc(Cl)c(F)c23)c1	Ki	-	RT activity / nucleotide incorporation	K103N	0.006 µM
CCN1c2ncc(CCOc3cccc4c3CNS4(=O)=O)cc2-c2ncc(C)n2-c2cccnc21	IC50	-	nucleotide incorporation / radiometric	-	<0.05 µM
CCN1c2ncc(CCOc3ccc(-c4ccc(C)nc4)cc3C)cc2C(=O)N(C)c2cccnc21	IC50	IIIB	nucleotide incorporation / radiometric	-	<0.05 µM
CC(C)(C)c1ccc(-n2nnnc2SCC(=O)Nc2ccc(C#CCCCCO)cc2Cl)c(Cl)c1	IC50	-	PicoGreen / fluorescence	RT-K103 Y181C	<1 µM
CC(C)Nc1cccnc1N1CCN(C(=O)c2cc3cc4c(cc3[nH]2)OCO4)CC1	IC50	-	nucleotide incorporation	-	<100 µM
CC(C)(C)c1ccc(-n2nnnc2SCC(=O)Nc2ccc(OCC(=O)Nc3ccc(O)cc3)cc2Cl)c(Cl)c1	IC50	-	PicoGreen / fluorescence	RT-K103 Y181C	<1 µM
CC(C)Nc1cccnc1N1CCN(C(=O)c2cc3ccc(C=O)cc3[nH]2)CC1	IC50	-	nucleotide incorporation	-	<100 µM
CNC(=O)OCC(C)(C)C#Cc1ccc(NC(=O)CSc2nnnn2-c2ccc(C(C)(C)C)cc2Cl)c(Cl)c1	IC50	WT	PicoGreen / fluorescence	-	<1 µM
COc1cc2[nH]c(C(=O)N3CCN(c4ncccc4NC(C)C)CC3)cc2cc1F	IC50	-	nucleotide incorporation	-	<100 µM
CC(C)(C)c1ccc(-n2nnnc2SCC(=O)Nc2ccc(C#CCCCO)cc2Cl)c(Cl)c1	IC50	-	PicoGreen / fluorescence	RT-K103 Y181C	<1 µM
CCNc1cccnc1N1CCCN(C(=O)c2cc3ccccc3[nH]2)CC1	IC50	-	nucleotide incorporation	-	<100 µM
O=C(CSc1nnnn1-c1ccc(C2CC2)cc1Cl)Nc1ccc(C#CCCN2CCNCC2)cc1Cl	IC50	WT	PicoGreen / fluorescence	-	<1 µM
Cc1ccc(S(=O)(=O)c2c(C)[nH]c3ccccc23)cc1	IC50	-	RT activity	WT	84 µM
CC(C)(C)c1ccc(-n2nnnc2SCC(=O)Nc2ccc(OCCN3CCCCC3)cc2Cl)c(Cl)c1	IC50	WT	PicoGreen / fluorescence	-	<1 µM
Cc1cc(C)cc(S(=O)(=O)c2c(C(=O)NC(C)C(N)=O)[nH]c3ccc(Cl)cc23)c1	IC50	-	RT activity	WT	0.023 µM

The first 7 rows once more:

smiles	measure	strain	method	changes	result
COc1ccc2cc(C(=O)N3CCN(c4ncccc4NC(C)C)CC3)[nH]c2c1Br	IC50	-	nucleotide incorporation	-	<100 µM
CC(C)(C)c1ccc(-n2nnnc2SCC(=O)Nc2ccc(NC(=O)Cc3ccccc3)cc2Cl)c(Cl)c1	IC50	-	PicoGreen / fluorescence	RT-K103 Y181C	<1 µM
Cc1c(S(=O)(=O)c2ccc(C(C)(C)C)cc2)[nH]c2ccccc12	IC50	-	RT activity	WT	89 µM
CC(C)Nc1cccnc1N(C)CCN(C)C(=O)c1cc2cc(F)ccc2[nH]1	IC50	-	nucleotide incorporation	-	<100 µM
Cc1cc(C)cc(S(=O)(=O)c2[nH]c3ccccc3c2-c2cccc([N+](=O)[O-])c2)c1	IC50	-	RT activity	Y181C	8 µM
CCN1c2ncc(CCOc3ccc(C(=O)N(C)c4ccc(C(=O)O)cc4)cc3C)cc2C(=O)N(C)c2cccnc21	IC50	IIIB	nucleotide incorporation / radiometric	-	<0.05 µM
Cc1cc(C)cc(S(=O)(=O)c2c(C(=O)NCCn3cccc3)[nH]c3ccc(Cl)c(F)c23)c1	Ki	-	RT activity / nucleotide incorporation	Y181C	3.7 µM

An empty or dashed field is not shown. Conditions beyond the fields shown may differ between rows.